Source: US20260234738A1

Target: Bt-SARS-CoV-2 Spike Protein (RBD) (R319-F541).mFc (column 6 of Table 8) (SARS-CoV-2)
Experiment: Luminex beads, supernatant

mAb10987 (antibody)
MFI: 26100 MFI
